{"source": "patent US20090092553A1", "about": "“MONOCARBOXYLATE TRANSPORTERS EXPRESSED IN CANCER CELLS” (Xenoport,Inc., priority 2003, published 2009)", "key": {"[1]": {"test_system": "KB human oral epidermoid carcinoma cell line", "test": "Alamar blue cytotoxicity assay, KB cells", "conditions": "48 hour treatment"}, "[2]": {"test_system": "PC3 human prostate cancer epithelial cell line", "test": "Alamar blue cytotoxicity assay, PC3 cells", "conditions": "PC3, 48 hour treatment"}, "[3]": {"test_system": "HT29 human colon carcinoma cell line", "test": "Alamar blue cytotoxicity assay, HT29 cells", "conditions": "HT29, 48 hour treatment"}, "[4]": {"test_system": "LoVo human colorectal cancer cell line", "test": "Alamar blue cytotoxicity assay, LoVo cells", "conditions": "48 hour treatment"}}}
{"smiles": "COc1ccc(C(=O)O)cc1N(CCCl)CCCl", "values": [{"measurement": "GI50", "setting": "[1]", "result": 401, "unit": "µM"}, {"measurement": "GI50", "setting": "[2]", "result": 242, "unit": "µM"}, {"measurement": "GI50", "setting": "[3]", "result": "≥ 1020", "unit": "µM"}, {"measurement": "GI50", "setting": "[4]", "result": 205, "unit": "µM"}]}
